Compound potency records, mixed from different reports. Data source: NIAID ChemDB in PubChem.

Common to all: growth or infection tests; species: Enterococcus faecium; endpoint: MIC

Lines come from different laboratories, so protocols vary.

SMILES,strain or isolate,value
O=C(CC(=O)Nc1ccc(F)cc1)Nc1ccc(F)cc1,EF12 (vancomycin-resistant),>300 µM
CC(=O)NC[C@H]1CN(c2ccc(C(=O)Nc3ccncc3)c(F)c2)C(=O)O1,UC12712 (vancomycin-resistant),8 µg/mL
CO/N=C/c1ccc(C(=O)Nc2ccc(N3C[C@H](CNC(C)=O)OC3=O)cc2F)o1,UC12712 (vancomycin-resistant),16 µg/mL
CC(=O)NC[C@H]1CN(c2ccc(C(=O)N(C)C)c(F)c2)C(=O)O1,UC12712 (vancomycin-resistant),16 µg/mL
CN(C)c1cc(CNCC(C)(C)C)c(O)c2c1C[C@H]1C[C@H]3[C@H](N(C)C)C(=O)C(C(N)=O)=C(O)[C@@]3(O)C(=O)C1=C2O,494 (vancomycin-resistant),0.5 µg/mL
O=C(/C=C/c1ccc([N+](=O)[O-])cc1)NC[C@H]1CN(c2ccc(N3CCOCC3)c(F)c2)C(=O)O1,UC12712 (vancomycin-resistant),8 µg/mL
Cc1c(NCCO)c(F)cc2c(=O)c(C(=O)O)cn(-c3cc(N)c(F)cc3F)c12,ATCC51519,8 µg/mL
CN(C)c1cc(CNC2CCCCC2)c(O)c2c1C[C@H]1C[C@H]3[C@H](N(C)C)C(=O)C(C(N)=O)=C(O)[C@@]3(O)C(=O)C1=C2O,494 (vancomycin-resistant),0.5 µg/mL
CC(=O)NC[C@H]1CN(c2ccc(NC(=O)c3ccc([N+](=O)[O-])o3)c(F)c2)C(=O)O1,UC12712 (vancomycin-resistant),0.5 µg/mL
O=C(NNC(=O)Nc1ccc(Cl)c(Cl)c1)Nc1ccc(Cl)c(Cl)c1,EF12 (vancomycin-resistant),9.8 µM
CCN(CC)CCSc1ccc(N2C[C@H](CNC(C)=O)OC2=O)cc1F,UC12712 (vancomycin-resistant),>64 µg/mL
O=C(Nc1ccc(C(F)(F)F)cc1)NN(CC(O)CN1CCOCC1)C(=O)Nc1ccc(C(F)(F)F)cc1,EF12 (vancomycin-resistant),75 µM
CC(=O)NC[C@H]1CN(c2ccc(C(=O)Nc3ccccn3)c(F)c2)C(=O)O1,UC12712 (vancomycin-resistant),8 µg/mL
CO/N=C/c1ccc(/C=C/C(=O)NC[C@H]2CN(c3ccc(N4CCOCC4)c(F)c3)C(=O)O2)cc1,UC12712 (vancomycin-resistant),8 µg/mL
Cc1c(NCCCO)c(F)cc2c(=O)c(C(=O)O)cn(-c3cc(N)c(F)cc3F)c12,ATCC51519,8 µg/mL
CC(=O)NCC1CN(c2ccc(N3CCCCC3)c(F)c2)C(=O)O1,UC12712 (vancomycin-resistant),32 µg/mL
CN(C)c1cc(CNC2CCCC2)c(O)c2c1C[C@H]1C[C@H]3[C@H](N(C)C)C(=O)C(C(N)=O)=C(O)[C@@]3(O)C(=O)C1=C2O,494 (vancomycin-resistant),0.5 µg/mL
CSc1ccc(C(=O)Nc2ccc(N3C[C@H](CNC(C)=O)OC3=O)cc2F)o1,UC12712 (vancomycin-resistant),16 µg/mL
CC(=O)NC[C@H]1CN(c2ccc(C(=O)Nc3cccnc3)c(F)c2)C(=O)O1,UC12712 (vancomycin-resistant),8 µg/mL
CC(=O)NC[C@H]1CN(c2ccc(OC3CCN(C(=O)COCc4ccccc4)CC3)c(F)c2)C(=O)O1,OC3312 vancomycin-resistant,4 µg/mL
O=C(CC(=O)Nc1cccc(C(F)(F)F)c1)Nc1cccc(C(F)(F)F)c1,EF12 (vancomycin-resistant),>300 µM
CCNc1c(F)cc2c(=O)c(C(=O)O)cn(-c3cc(N)c(F)cc3F)c2c1C,ATCC51519,8 µg/mL
O=C(/C=C/c1ccncc1)NC[C@H]1CN(c2ccc(N3CCOCC3)c(F)c2)C(=O)O1,UC12712 (vancomycin-resistant),16 µg/mL
CC(=O)NC[C@H]1CN(c2ccc(OC3CCN(C(=O)COCc4ccccc4)CC3)nc2)C(=O)O1,OC3312 vancomycin-resistant,128 µg/mL
CN(C)c1cc(CNCc2ccccc2)c(O)c2c1C[C@H]1C[C@H]3[C@H](N(C)C)C(=O)C(C(N)=O)=C(O)[C@@]3(O)C(=O)C1=C2O,494 (vancomycin-resistant),1 µg/mL
O=C(Nc1cccc(C2=NCCN2)c1)Nc1cccc(C2=NCCN2)c1,EF12 (vancomycin-resistant),300 µM
CCOC(=O)C(C)(C)Sc1ccc(N2C[C@H](CNC(C)=O)OC2=O)cc1F,UC12712 (vancomycin-resistant),16 µg/mL
O=C(Nc1cccc(C2=NCCN2)c1)Nc1cccc(C(F)(F)F)c1,EF12 (vancomycin-resistant),106 µM
CNC(=O)c1ccc(N2C[C@H](CNC(C)=O)OC2=O)cc1F,UC12712 (vancomycin-resistant),8 µg/mL
O=C(NNC(=O)Nc1ccccc1C(F)(F)F)Nc1cc(C(F)(F)F)cc(C(F)(F)F)c1,EF12 (vancomycin-resistant),>422 µM
CC(=O)NC[C@H]1CN(c2ccc3c(c2)OCc2nccn2-3)C(=O)O1,27266,1 µg/mL
CC(=O)NCC1CN(c2ccc(N3CCN(c4ccccn4)CC3)c(F)c2)C(=O)O1,UC12712 (vancomycin-resistant),8 µg/mL
O=C(CC(=O)Nc1cc(C(F)(F)F)cc(C(F)(F)F)c1)Nc1cccc(C2=NCCN2)c1,EF12 (vancomycin-resistant),212 µM
CC(=O)NC[C@H]1CN(c2ccc(C(=O)Nc3nc4ccccc4s3)c(F)c2)C(=O)O1,UC12712 (vancomycin-resistant),8 µg/mL
O=C(NNC(=O)Nc1cc(C(F)(F)F)cc(C(F)(F)F)c1)Nc1ccccc1,EF12 (vancomycin-resistant),>200 µM
CC(=O)NC[C@H]1CN(c2ccc(SCc3ncon3)c(F)c2)C(=O)O1,UC12712 (vancomycin-resistant),8 µg/mL
CC(=O)NC[C@H]1CN(c2ccc(NC(=O)c3ccc(C=O)o3)c(F)c2)C(=O)O1,UC12712 (vancomycin-resistant),16 µg/mL

4 of the rows above, restated:

| SMILES | strain or isolate | value |
|---|---|---|
| CC(=O)NC[C@H]1CN(c2ccc(OC3CCN(C(=O)COCc4ccccc4)CC3)c(F)c2)C(=O)O1 | OC3312 vancomycin-resistant | 4 µg/mL |
| CC(=O)NCC1CN(c2ccc(N3CCCCC3)c(F)c2)C(=O)O1 | UC12712 (vancomycin-resistant) | 32 µg/mL |
| CC(=O)NC[C@H]1CN(c2ccc(SCc3ncon3)c(F)c2)C(=O)O1 | UC12712 (vancomycin-resistant) | 8 µg/mL |
| CC(=O)NC[C@H]1CN(c2ccc(C(=O)Nc3ccccn3)c(F)c2)C(=O)O1 | UC12712 (vancomycin-resistant) | 8 µg/mL |